This note sets out measurements from article PMC9959676 (Molecules, 2023).

Some test systems named below: Escherichia coli; Pseudomonas aeruginosa; Staphylococcus aureus.
Holding throughout (test): Antibacterial agar-well diffusion
What all share (format): cell-based
Common to all, as to details: sample 100 mg/5 mL in DMSO; ceftriaxone sodium 20 mg/10 mL; 37 °C, 24 h; 6 mm wells
On the technique in general: In agar diffusion tests the substance spreads into inoculated agar from a disc or well.

`CCCCC(=O)N(Cc1ccc(-c2ccccc2-c2nn[nH]n2)cc1)C(C(=O)Oc1c([N+](=O)[O-])cc([N+](=O)[O-])cc1[N+](=O)[O-])C(C)C` (stereo not drawn): in the assay on Escherichia coli, the “Zone of Inhibition Gram -Ve Bacteria E. coli Mean ± SEM” value is 10.93 ± 0.58 millimeters. For the same compound, in the assay with Pseudomonas aeruginosa, the “Zone of Inhibition Gram -Ve Bacteria P. aeruginosa Mean ± SEM” value is 11.73 ± 0.33 millimeters. Besides, the “Zone of Inhibition Gram +ve Bacteria S. aureus Mean ± SEM” value in the assay with Staphylococcus aureus is given as 11.53 ± 0.58 millimeters.
